Experimental data from patent US20110269834A1 (priority 2008, published 2011).

Biological target: SARS-CoV PLpro (Severe acute respiratory syndrome coronavirus, UniProt P0C6X7)
Type: biochemical

SMILES	IC50 [µM]
COc1ccccc1C(=O)N[C@H](C)c1ccc2ccccc2c1 [Compound 5c, 2-Methoxy-N—[(R)-1-(2-naphthyl)ethyl]benzamide]	90 ± 26
COc1cccc(C(=O)N[C@H](C)c2ccc3ccccc3c2)c1 [Compound 5d, 3-Methoxy-N—[(R)-1-(2-naphthyl)ethyl]benzamide]	13.5 ± 6.8
C[C@@H](NC(=O)c1ccc(N)cc1)c1cccc2ccccc12 [Compound 23, 4-Amino-N—[(R)-1-(1-naphthyl)ethyl]benzamide]	24.8 ± 1
